The target of assay [1] is T1, Nav1.7 (Homo sapiens, UniProt Q15858, W1161R). Put plainly: IC50 (Nav1.7) µM. The following applies: read-out: IC50 (Nav1.7) µM.
In assay [2] the target is T2, Nav1.2 (Homo sapiens, UniProt Q99250). Put plainly: IC50 (Nav1.2) µM. The settings on record: read-out: IC50 (Nav1.2) µM.
Assay [3] addresses T2, Nav1.2. As to the kind of experiment: IC50 (Nav1.2) µM. The settings on record: read-out: IC50 (Nav1.2) µM. This is another data set of the same source.
Assay [4] deals with T1, Nav1.7. As to the kind of experiment: IC50 (Nav1.7) µM. The settings on record: read-out: IC50 (Nav1.7) µM. The source holds these as a separate data set.

Chains of the proteins cited; added tags and fusions are not shown.
UniProt Q15858, whole entry W1161R, looked up: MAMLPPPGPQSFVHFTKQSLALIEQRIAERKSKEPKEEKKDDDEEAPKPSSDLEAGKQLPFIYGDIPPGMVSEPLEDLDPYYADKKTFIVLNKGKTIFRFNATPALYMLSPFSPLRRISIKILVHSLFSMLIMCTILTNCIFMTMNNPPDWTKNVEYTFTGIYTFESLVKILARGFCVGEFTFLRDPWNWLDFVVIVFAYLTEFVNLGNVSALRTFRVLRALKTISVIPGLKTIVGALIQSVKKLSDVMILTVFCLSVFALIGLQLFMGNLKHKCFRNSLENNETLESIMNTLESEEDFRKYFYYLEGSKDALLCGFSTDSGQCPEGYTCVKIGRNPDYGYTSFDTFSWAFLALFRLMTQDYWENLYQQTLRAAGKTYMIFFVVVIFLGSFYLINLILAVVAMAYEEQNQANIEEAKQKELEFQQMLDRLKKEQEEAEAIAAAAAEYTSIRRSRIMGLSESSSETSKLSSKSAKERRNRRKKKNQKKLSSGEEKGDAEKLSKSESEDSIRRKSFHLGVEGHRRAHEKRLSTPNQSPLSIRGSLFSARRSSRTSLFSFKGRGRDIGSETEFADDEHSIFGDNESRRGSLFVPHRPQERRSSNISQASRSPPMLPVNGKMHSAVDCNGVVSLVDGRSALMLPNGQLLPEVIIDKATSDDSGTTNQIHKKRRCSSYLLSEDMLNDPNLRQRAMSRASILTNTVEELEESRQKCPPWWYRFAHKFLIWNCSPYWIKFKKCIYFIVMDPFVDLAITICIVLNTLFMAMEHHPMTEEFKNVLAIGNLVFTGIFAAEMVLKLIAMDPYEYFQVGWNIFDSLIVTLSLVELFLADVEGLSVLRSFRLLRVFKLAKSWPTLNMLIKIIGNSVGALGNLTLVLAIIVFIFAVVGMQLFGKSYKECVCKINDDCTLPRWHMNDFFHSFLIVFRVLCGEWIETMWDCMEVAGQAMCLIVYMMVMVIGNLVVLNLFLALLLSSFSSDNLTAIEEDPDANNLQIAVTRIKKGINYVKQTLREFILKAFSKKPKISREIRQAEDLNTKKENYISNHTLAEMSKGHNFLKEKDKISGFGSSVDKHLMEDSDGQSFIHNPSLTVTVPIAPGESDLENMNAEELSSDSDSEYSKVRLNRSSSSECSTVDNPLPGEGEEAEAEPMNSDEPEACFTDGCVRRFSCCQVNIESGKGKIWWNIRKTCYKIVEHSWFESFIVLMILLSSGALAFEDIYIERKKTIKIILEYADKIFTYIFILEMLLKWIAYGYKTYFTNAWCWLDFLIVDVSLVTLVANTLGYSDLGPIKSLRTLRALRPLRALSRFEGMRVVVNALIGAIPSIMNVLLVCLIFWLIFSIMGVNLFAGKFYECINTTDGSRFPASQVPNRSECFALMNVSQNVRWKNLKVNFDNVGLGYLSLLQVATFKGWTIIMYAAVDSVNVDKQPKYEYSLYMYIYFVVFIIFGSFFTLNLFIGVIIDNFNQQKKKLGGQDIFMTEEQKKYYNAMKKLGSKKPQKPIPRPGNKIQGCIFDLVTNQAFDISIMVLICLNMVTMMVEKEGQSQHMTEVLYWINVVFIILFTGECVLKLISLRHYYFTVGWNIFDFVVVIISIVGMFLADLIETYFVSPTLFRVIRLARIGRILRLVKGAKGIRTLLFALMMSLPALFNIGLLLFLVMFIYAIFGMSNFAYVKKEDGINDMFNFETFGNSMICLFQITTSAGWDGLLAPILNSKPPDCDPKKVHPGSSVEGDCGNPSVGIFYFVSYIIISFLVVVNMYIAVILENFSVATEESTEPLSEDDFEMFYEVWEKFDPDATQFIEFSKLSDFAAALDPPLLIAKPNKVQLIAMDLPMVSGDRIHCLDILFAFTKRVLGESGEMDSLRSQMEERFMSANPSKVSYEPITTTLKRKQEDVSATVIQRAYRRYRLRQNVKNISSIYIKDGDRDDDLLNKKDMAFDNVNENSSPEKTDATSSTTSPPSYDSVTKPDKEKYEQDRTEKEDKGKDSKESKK
UniProt Q99250, whole entry, looked up: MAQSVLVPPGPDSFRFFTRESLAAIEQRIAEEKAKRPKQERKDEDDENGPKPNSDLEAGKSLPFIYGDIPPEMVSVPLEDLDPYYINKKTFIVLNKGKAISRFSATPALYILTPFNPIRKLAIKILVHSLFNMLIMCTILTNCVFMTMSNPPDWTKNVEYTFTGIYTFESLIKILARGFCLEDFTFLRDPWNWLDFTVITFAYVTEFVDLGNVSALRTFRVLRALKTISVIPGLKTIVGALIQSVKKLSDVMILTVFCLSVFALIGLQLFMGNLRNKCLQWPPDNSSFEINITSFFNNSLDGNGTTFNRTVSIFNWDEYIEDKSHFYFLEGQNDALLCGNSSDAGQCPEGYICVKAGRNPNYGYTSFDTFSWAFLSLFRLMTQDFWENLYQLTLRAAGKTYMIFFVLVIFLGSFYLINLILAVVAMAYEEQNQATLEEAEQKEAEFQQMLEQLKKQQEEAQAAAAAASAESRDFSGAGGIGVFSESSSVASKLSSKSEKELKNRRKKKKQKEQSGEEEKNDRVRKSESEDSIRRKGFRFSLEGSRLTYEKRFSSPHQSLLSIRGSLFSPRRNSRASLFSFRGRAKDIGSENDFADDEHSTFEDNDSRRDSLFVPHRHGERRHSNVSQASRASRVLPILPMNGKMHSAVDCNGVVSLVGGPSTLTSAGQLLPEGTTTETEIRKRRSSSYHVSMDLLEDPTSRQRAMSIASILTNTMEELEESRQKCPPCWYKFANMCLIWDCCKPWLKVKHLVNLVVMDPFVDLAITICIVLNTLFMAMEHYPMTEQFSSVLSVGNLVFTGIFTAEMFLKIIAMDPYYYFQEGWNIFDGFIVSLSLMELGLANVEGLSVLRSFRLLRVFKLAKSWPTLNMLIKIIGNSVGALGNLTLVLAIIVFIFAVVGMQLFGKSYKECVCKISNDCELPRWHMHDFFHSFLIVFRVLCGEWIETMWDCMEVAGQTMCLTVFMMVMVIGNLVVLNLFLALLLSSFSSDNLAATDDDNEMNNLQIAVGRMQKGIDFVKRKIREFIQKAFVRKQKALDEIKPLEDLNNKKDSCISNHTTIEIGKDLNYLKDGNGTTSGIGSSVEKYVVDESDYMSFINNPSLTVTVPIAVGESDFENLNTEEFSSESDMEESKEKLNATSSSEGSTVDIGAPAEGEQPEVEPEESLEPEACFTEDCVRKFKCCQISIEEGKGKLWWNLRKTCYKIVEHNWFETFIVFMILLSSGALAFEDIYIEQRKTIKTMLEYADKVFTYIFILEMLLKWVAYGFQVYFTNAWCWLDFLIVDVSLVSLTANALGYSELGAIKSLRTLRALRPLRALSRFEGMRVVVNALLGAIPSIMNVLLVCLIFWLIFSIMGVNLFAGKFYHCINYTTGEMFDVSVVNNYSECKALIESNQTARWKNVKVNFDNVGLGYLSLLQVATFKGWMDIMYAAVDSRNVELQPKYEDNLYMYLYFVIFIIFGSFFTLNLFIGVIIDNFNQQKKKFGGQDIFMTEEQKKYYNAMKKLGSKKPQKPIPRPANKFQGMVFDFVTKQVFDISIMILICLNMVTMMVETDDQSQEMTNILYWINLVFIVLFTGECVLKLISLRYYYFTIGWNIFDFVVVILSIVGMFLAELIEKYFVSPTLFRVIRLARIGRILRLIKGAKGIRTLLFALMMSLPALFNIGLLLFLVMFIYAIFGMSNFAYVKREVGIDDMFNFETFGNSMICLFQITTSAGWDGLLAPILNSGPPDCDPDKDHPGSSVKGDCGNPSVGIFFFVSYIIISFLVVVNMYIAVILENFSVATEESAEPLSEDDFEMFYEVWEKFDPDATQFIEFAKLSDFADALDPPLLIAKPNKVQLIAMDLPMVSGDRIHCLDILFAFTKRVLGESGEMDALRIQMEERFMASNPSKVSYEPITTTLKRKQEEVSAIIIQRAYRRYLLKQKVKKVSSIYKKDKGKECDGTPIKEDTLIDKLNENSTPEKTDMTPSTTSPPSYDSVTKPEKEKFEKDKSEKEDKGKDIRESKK

Where two headings read alike, the source gives them in different places.

We go through eight compounds from patent US10414808B2 (priority 2012, dated 2019).

For orientation: IC50 means the point on the concentration scale where inhibition reaches its midpoint. On to `CC[C@H](C)[C@H](NC(=O)[C@H](CO)NC(=O)[C@H](Cc1c[nH]c2ccccc12)NC(=O)[C@H](CCCCN)NC(=O)[C@@H]1CSSC[C@@H]2NC(=O)[C@H](CCC(N)=O)NC(=O)[C@H](CC(=O)O)NC(=O)[C@H](CC(N)=O)NC(=O)[C@H](CO)NC(=O)[C@@H]3CCCN3C(=O)[C@H](CC(N)=O)NC(=O)[C@@H]3CSSC[C@H](NC(=O)[C@H](C(C)C)NC(=O)[C@H](CC(C)C)NC(=O)[C@H](CCCCN)NC(=O)[C@H](CO)NC(=O)[C@H](CO)NC(=O)[C@H](CCCCN)NC(=O)[C@H](CSSC[C@H](NC(=O)[C@H](CCC(=O)O)NC(=O)[C@@H]4CCCN4C(=O)CN)C(=O)N[C@@H](CC(C)C)C(=O)N[C@@H](CCC(=O)O)C(=O)N[C@@H]([C@@H](C)CC)C(=O)N[C@@H](Cc4ccccc4)C(=O)N[C@@H](CCCCN)C(=O)N[C@@H](C)C(=O)N3)NC2=O)C(=O)N[C@@H](CO)C(=O)N[C@@H](CCCNC(=N)N)C(=O)N[C@@H](CCCCN)C(=O)N[C@@H]([C@@H](C)O)C(=O)N[C@@H](CCCNC(=N)N)C(=O)N[C@@H](Cc2c[nH]c3ccccc23)C(=O)N1)C(=O)NCC(=O)N[C@@H](CCCCN)C(=O)O`, for which the IC50 at Nav1.7 [1] was 0.01 µM; at Nav1.2 [2], 0.04 µM.
Take `CC[C@H](C)[C@H](NC(=O)[C@H](CO)NC(=O)[C@H](Cc1c[nH]c2ccccc12)NC(=O)[C@H](CCCCN)NC(=O)[C@@H]1CSSC[C@@H]2NC(=O)[C@H](CCC(N)=O)NC(=O)[C@H](CC(=O)O)NC(=O)[C@H](CC(N)=O)NC(=O)[C@H](CO)NC(=O)[C@@H]3CCCN3C(=O)[C@H](CC(N)=O)NC(=O)[C@@H]3CSSC[C@H](NC(=O)[C@H](C(C)C)NC(=O)[C@H](CC(C)C)NC(=O)[C@H](CCCCN)NC(=O)[C@H](CO)NC(=O)[C@H](CO)NC(=O)[C@H](CCCCN)NC(=O)[C@H](CSSC[C@H](NC(=O)[C@H](CC(N)=O)NC(=O)[C@@H]4CCCN4C(=O)CN)C(=O)N[C@@H](CC(C)C)C(=O)N[C@@H](CCCNC(=N)N)C(=O)N[C@@H]([C@@H](C)CC)C(=O)N[C@@H](Cc4ccccc4)C(=O)N[C@@H](CCCCN)C(=O)N[C@@H](C)C(=O)N3)NC2=O)C(=O)N[C@@H](CO)C(=O)N[C@@H](CCCNC(=N)N)C(=O)N[C@@H](CCCCN)C(=O)N[C@@H]([C@@H](C)O)C(=O)N[C@@H](CCCNC(=N)N)C(=O)N[C@@H](Cc2c[nH]c3ccccc23)C(=O)N1)C(=O)NCC(=O)N[C@@H](CCCCN)C(=O)O`: the half-inhibitory concentration (IC50) stood at 0.02 µM at Nav1.2 [3] and 0.01 µM on Nav1.7 [1].
Consider `CC[C@H](C)[C@@H]1NC(=O)[C@H](CCCNC(=N)N)NC(=O)[C@H](CC(C)C)NC(=O)[C@@H](NC(=O)[C@H](CC(N)=O)NC(=O)[C@@H]2CCCN2C(=O)CN)CSSC[C@@H]2NC(=O)[C@@H]3CSSC[C@@H](C(=O)N[C@@H](CCCCN)C(=O)N[C@@H](Cc4ccc(O)cc4)C(=O)N[C@@H](CO)C(=O)N[C@H](C(=O)N[C@H](C(=O)N[C@@H](CCCCN)C(=O)O)[C@@H](C)CC)[C@@H](C)CC)NC(=O)[C@H](Cc4c[nH]c5ccccc45)NC(=O)[C@H](CCCNC(=N)N)NC(=O)[C@H]([C@@H](C)O)NC(=O)[C@H](CCCCN)NC(=O)[C@H](CCCNC(=N)N)NC(=O)[C@H](CO)NC(=O)[C@H](CSSC[C@H](NC(=O)[C@H](C)NC(=O)[C@H](CCCCN)NC(=O)[C@H](Cc4ccccc4)NC1=O)C(=O)N[C@@H](CC(N)=O)C(=O)N1CCC[C@H]1C(=O)N[C@@H](CO)C(=O)N[C@@H](CC(N)=O)C(=O)N[C@@H](CC(=O)O)C(=O)N[C@@H](CCC(N)=O)C(=O)N3)NC(=O)[C@H](C(C)C)NC(=O)[C@H](CC(C)C)NC(=O)[C@H](CCCCN)NC(=O)[C@H](CO)NC(=O)[C@H](CO)NC(=O)[C@H](CCCCN)NC2=O`, for which the IC50 on Nav1.7 [1] worked out at 0.01 µM.
In the case of `CC[C@H](C)[C@H](NC(=O)[C@H](CCC(N)=O)NC(=O)[C@H](Cc1ccc(O)cc1)NC(=O)[C@H](CCCCN)NC(=O)[C@@H]1CSSC[C@@H]2NC(=O)[C@@H]3CCCN3C(=O)[C@H](CC(=O)O)NC(=O)[C@H](CC(N)=O)NC(=O)[C@H](CO)NC(=O)[C@@H]3CCCN3C(=O)[C@H](CC(N)=O)NC(=O)[C@@H]3CSSC[C@H](NC(=O)[C@H](C(C)C)NC(=O)[C@H](CC(C)C)NC(=O)[C@H](CCCCN)NC(=O)[C@H](CO)NC(=O)[C@H](CO)NC(=O)[C@H](CCCCN)NC(=O)[C@H](CSSC[C@H](NC(=O)[C@H](CCC(=O)O)NC(=O)[C@@H]4CCCN4C(=O)CN)C(=O)N[C@@H](CC(C)C)C(=O)N[C@@H](CCC(=O)O)C(=O)N[C@@H]([C@@H](C)CC)C(=O)N[C@@H](Cc4ccccc4)C(=O)N[C@@H](CCCCN)C(=O)N[C@@H](C)C(=O)N3)NC2=O)C(=O)N[C@@H](CO)C(=O)N[C@@H](CCCNC(=N)N)C(=O)N[C@@H](CCCCN)C(=O)N[C@@H]([C@@H](C)O)C(=O)N[C@@H](CCCNC(=N)N)C(=O)N[C@@H](Cc2c[nH]c3ccccc23)C(=O)N1)C(=O)NCC(=O)N[C@@H](CCCCN)C(=O)O`, the IC50 amounted to 0.35 µM on Nav1.7 [4] and 4.63 µM on Nav1.2 [3].
The like results for `CC[C@H](C)[C@@H]1NC(=O)[C@H](CCC(=O)O)NC(=O)[C@H](CC(C)C)NC(=O)[C@@H](NC(=O)[C@H](CC(N)=O)NC(=O)[C@@H]2CCCN2C(=O)CN)CSSC[C@@H]2NC(=O)[C@@H]3CSSC[C@@H](C(=O)N[C@@H](CCCCN)C(=O)N[C@@H](Cc4c[nH]c5ccccc45)C(=O)N[C@@H](CCC(N)=O)C(=O)N[C@H](C(=O)N[C@H](C(=O)N[C@@H](CCCCN)C(=O)O)[C@@H](C)CC)[C@@H](C)CC)NC(=O)[C@H](Cc4c[nH]c5ccccc45)NC(=O)[C@H](CCCNC(=N)N)NC(=O)[C@H]([C@@H](C)O)NC(=O)[C@H](CCCCN)NC(=O)[C@H](CCCNC(=N)N)NC(=O)[C@H](CO)NC(=O)[C@H](CSSC[C@H](NC(=O)[C@H](C)NC(=O)[C@H](CCCCN)NC(=O)[C@H](Cc4ccccc4)NC1=O)C(=O)N[C@@H](CC(N)=O)C(=O)N1CCC[C@H]1C(=O)N[C@@H](CO)C(=O)N[C@@H](CC(N)=O)C(=O)N[C@@H](CC(=O)O)C(=O)N[C@@H](CCC(N)=O)C(=O)N3)NC(=O)[C@H](C(C)C)NC(=O)[C@H](CC(C)C)NC(=O)[C@H](CCCCN)NC(=O)[C@H](CO)NC(=O)[C@H](CO)NC(=O)[C@H](CCCCN)NC2=O` were, in that order, 0.02 µM and 0.25 µM.
The like results for `CC[C@H](C)[C@H](NC(=O)[C@H](CCC(N)=O)NC(=O)[C@H](Cc1ccc(O)cc1)NC(=O)[C@H](CCCCN)NC(=O)[C@@H]1CSSC[C@@H]2NC(=O)[C@H](CCC(N)=O)NC(=O)[C@H](CC(=O)O)NC(=O)[C@H](CC(N)=O)NC(=O)[C@H](CO)NC(=O)[C@@H]3CCCN3C(=O)[C@H](CC(N)=O)NC(=O)[C@@H]3CSSC[C@H](NC(=O)[C@H](C(C)C)NC(=O)[C@H](CC(C)C)NC(=O)[C@H](CCCNC(=N)N)NC(=O)[C@H](CO)NC(=O)[C@H](CO)NC(=O)[C@H](CCCCN)NC(=O)[C@H](CSSC[C@H](NC(=O)[C@H](CCC(=O)O)NC(=O)[C@@H]4CCCN4C(=O)CN)C(=O)N[C@@H](CC(C)C)C(=O)N[C@@H](CCC(=O)O)C(=O)N[C@@H]([C@@H](C)CC)C(=O)N[C@@H](Cc4ccccc4)C(=O)N[C@@H](CCCCN)C(=O)N[C@@H](C)C(=O)N3)NC2=O)C(=O)N[C@@H](CO)C(=O)N[C@@H](CCCNC(=N)N)C(=O)N[C@@H](CCCCN)C(=O)N[C@@H]([C@@H](C)O)C(=O)N[C@@H](CCCNC(=N)N)C(=O)N[C@@H](Cc2c[nH]c3ccccc23)C(=O)N1)C(=O)NCC(=O)N[C@@H](CCCCN)C(=O)O` were, in that order, 0.02 µM and 0.04 µM.
On to `CC[C@H](C)[C@H](NC(=O)[C@H](CCC(N)=O)NC(=O)[C@H](Cc1ccc(O)cc1)NC(=O)[C@H](CCCCN)NC(=O)[C@@H]1CSSC[C@@H]2NC(=O)[C@H](CCC(N)=O)NC(=O)[C@H](CC(=O)O)NC(=O)[C@H](CC(N)=O)NC(=O)[C@H](CO)NC(=O)[C@@H]3CCCN3C(=O)[C@H](CC(N)=O)NC(=O)[C@@H]3CSSC[C@H](NC(=O)[C@H](C)NC(=O)[C@H](CC(C)C)NC(=O)[C@H](CCCCN)NC(=O)[C@H](CO)NC(=O)[C@H](CO)NC(=O)[C@H](CCCCN)NC(=O)[C@H](CSSC[C@H](NC(=O)[C@H](CCC(=O)O)NC(=O)[C@@H]4CCCN4C(=O)CN)C(=O)N[C@@H](CC(C)C)C(=O)N[C@@H](CCC(=O)O)C(=O)N[C@@H]([C@@H](C)CC)C(=O)N[C@@H](Cc4ccccc4)C(=O)N[C@@H](CCCCN)C(=O)N[C@@H](C)C(=O)N3)NC2=O)C(=O)N[C@@H](CO)C(=O)N[C@@H](CCCNC(=N)N)C(=O)N[C@@H](CCCCN)C(=O)N[C@@H]([C@@H](C)O)C(=O)N[C@@H](CCCNC(=N)N)C(=O)N[C@@H](Cc2c[nH]c3ccccc23)C(=O)N1)C(=O)NCC(=O)N[C@@H](CCCCN)C(=O)O`, for which the figures for the IC50 on Nav1.7 [4] and at Nav1.2 [3] were 0.11 µM and > 1.51 µM, respectively.
For the compound `CC[C@H](C)[C@H](NC(=O)[C@H](CCC(N)=O)NC(=O)[C@H](Cc1ccc(O)cc1)NC(=O)[C@H](CCCCN)NC(=O)[C@@H]1CSSC[C@@H]2NC(=O)[C@H](CCC(N)=O)NC(=O)[C@H](CC(=O)O)NC(=O)[C@H](CC(N)=O)NC(=O)[C@H](CO)NC(=O)[C@@H]3CCCN3C(=O)[C@H](CC(N)=O)NC(=O)[C@@H]3CSSC[C@H](NC(=O)[C@H](C(C)C)NC(=O)[C@H](CC(C)C)NC(=O)[C@H](CCCCN)NC(=O)[C@H](CO)NC(=O)[C@H](CO)NC(=O)[C@H](CCCCN)NC(=O)[C@H](CSSC[C@H](NC(=O)[C@H](CCC(=O)O)NC(=O)[C@@H]4CCCN4C(=O)CN)C(=O)N[C@@H](CC(C)C)C(=O)N[C@@H](CCC(=O)O)C(=O)N[C@@H]([C@@H](C)CC)C(=O)N[C@@H](Cc4ccccc4)C(=O)N[C@@H](CCCCN)C(=O)N[C@@H](C)C(=O)N3)NC2=O)C(=O)N[C@@H](CO)C(=O)N[C@@H](CCCNC(=N)N)C(=O)N[C@@H](CCCCN)C(=O)N[C@@H](C)C(=O)N[C@@H](CCCNC(=N)N)C(=O)N[C@@H](Cc2c[nH]c3ccccc23)C(=O)N1)C(=O)NCC(=O)N[C@@H](CCCCN)C(=O)O`, the 50% inhibitory concentration (IC50) on Nav1.2 [2] amounted to 0.1 µM.
